Data published in paper PMC8606745 (Frontiers in Microbiology, 2021).

Experiment: general procedure: Fmoc solid-phase peptide synthesis; Fmoc-Rink-ChemMatrix resin (0.69 mmol/g), PAC-MBHA resin (0.24 mmol/g), or Fmoc-Rink-MBHA resin (0.56 mmol/g)
Details: whole synthesis

Substance | final HPLC purity [%]
VQFRIRVRIVIRK-NH2 | 94
RIVWVRIRRWFV-NH2 | >99
WKKIRVRLSA-NH2 | >99
KQFRIRVRV-NH2 | >99
WLRRIKAWLRRIKA-NH2 | >99
VQWRIRVRVIKK-NH2 | 98
HOC11H22CO-ILPFKFPFFPFRR-NH2 | >99
VFWRRIRVWVIR-NH2 | >99
WIRRIKKWIRRVHK-NH2 | >99
WLRRIKAWLRRIKA-OH | >99
KRIVKLILKWLR-NH2 | 97
ILPFKFPFFPFRR-NH2 | >99
GIGKFLHSAK-NH2 | >99
FLFSLIPRAIGGLISAFK-NH2 | >99
ILPWKWPWWPWRR-NH2 | >99
WLRRIKAWLRRKRK-NH2 | >99
ILKKLLKKVKKI-NH2 | >99
C11H23CO-ILPFKFPFFPFRR-NH2 | >99
GIGKFLHSAKKFGKAFVGEIMNS-NH2 | 64
KRFRIRVRVIRK-NH2 | 97
KRFRIRVRV-NH2 | >99
C5H11CO-ILPFKFPFFPFRR-NH2 | >99
C3H7CO-ILPFKFPFFPFRR-NH2 | >99
FLFSLIPKAIGGLISAFK-NH2 | >99
FRIRVRV-NH2 | 95
GILGKLWEGVKSIF-NH2 | >99
RFRRLFRIRVRVLKKI-NH2 | >99
ILKKLLKKVKSI-NH2 | >99
VRLIVAVRIWRR-NH2 | 93
FLFSLIPHAIGGLISAFK-NH2 | >99
